Experimental data as given in patent US20260335320A1, “ANTI-VIRULENCE AGENTS AND METHODS FOR THE TREATMENT OF PATHOGENIC BACTERIUM” (priority 2023, published 2026).

Key:
[1] = test system: Burkholderia FixLJ pathway (Fix-GFP reporter in B. multivorans strain VC7102); test: Fix-GFP reporter activation screen (GFP fluorescence); settings: vs DMSO
[2] = test system: Burkholderia FixLJ pathway (Fix-GFP reporter in B. dolosa strain AU0158); test: Fix-GFP reporter activation, parental B. dolosa (GFP fluorescence)

NC(CO)C(=O)NNCc1ccc(O)c(O)c1O (stereo not drawn) [Benserazide, benserazide]
induction of GFP response [1]: able to induce GFP response in a dose-dependent manner in both B. multivorans and B. dolosa
induction of GFP response ([1]; listed as benserazide): able to induce GFP levels above vehicle (DMSO) treated wells
induction of GFP response / activation of GFP reporter [2]: able to induce GFP response in a dose-dependent manner in both B. multivorans and B. dolosa
